Results: article PMC8699537, “In Vitro Anti-SARS-CoV-2 Activity of Selected Metal Compounds and Potential Molecular Basis for Their Actions Based on Computational Study” (Biomolecules, 2021)

Tested on: SARS-CoV-2
Format: cell-based

[Cl][Sb]([Cl])[Cl] [SbCl3, antimony trichloride]
Selectivity Index: 6.4

[Cl-].[Cl-].[Cl-].[Cl-].[Ru+3].c1ccc2[nH][nH+]cc2c1.c1ccc2[nH]ncc2c1.c1ccc2[nH]ncc2c1 [KP1019]
Selectivity Index: 6.8

Which two values form the index is not stated here.
